Values quoted from earlier work as cited in US5108993A, “Pharmaceutical composition comprising zidovudine and inosiplex or components thereof for the treatment of aids-related syndromes” (priority 1988, dated 1992).

Tested on: HIV
Details: with zidovudine; GB 2 181 128 A; cited from earlier work

interleukine II: interleukine II
effect on zidovudine: synergistic effect

B1: beta-interferon: alpha-, beta, and gamma-interferons (protein, UniProt P01574 22-187, looked up)
Interferon beta: MSYNLLGFLQRSSNFQCQKLLWQLNGRLEYCLKDRMNFDIPEEIKQLQQFQKEDAALTIYEMLQNIFAIFRQDSSSTGWNETIVENLLANVYHQINHLKTVLEEKLEKEDFTRGKLMSSLHLKRYYGRILHYLKAKEYSHCAWTIVRVEILRNFYFINRLTGYLRN
effect on zidovudine: synergistic effect
